Results on two compounds are retold here after PMC10628858, “Investigation of new ferrocenyl-artesunate derivatives as antiparasitics” (Dalton Transactions (Cambridge, England : 2003), 2023).

The data set has as its system HEK293 cells. As to the kind of experiment: MTT cell viability assay, HEK293. Type of data set: cell-based, human. Conditions: selectivity index; for S.I (P. falciparum), HEK293: HEK293 vs P. falciparum NF54; for S.I (T. gondii), HEK293: HEK293 vs T. gondii. The method, then:
To assess the cytotoxicity of the four compounds a MTT cell viability assay using human embryonic kidney (HEK293) and human prostatic (PNT1A) cell lines were performed. […] The long chain compounds C1 and C3 were also shown to be non-cytotoxic towards the HEK293 cell line.
The immortalised human prostatic epithelial cell line, PNT1A (Sigma Aldrich, 95012614) was cultured in RPMI-1640 containing 10% foetal calf serum (Life Technologies, South Africa). The human embryonic kidney cell line HEK293 (ATCC) was cultured in DMEM (Life Technologies, South Africa). Both cell lines were cultured at 37 °C under 5% CO2 with 1% penicillin and streptomycin. Cancer cell cytotoxicity was evaluated using the MTT viability assay according to our previous method.[49] Briefly, cells were seeded at a density of 3 × 10^3 cells per well in 96-well plates and allowed to settle overnight. A 100 mM stock of C1/C2 and a 50 mM stock solution of C3/C4 in DMSO was prepared from which dilutions were made. The compound was then added to the cells in triplicate to obtain the indicated concentrations and 0.1% DMSO. Controls included cells treated with […] DMSO alone. After 48 h, 10 μL of 5 mg mL^−1 MTT (3-(4,5-dimethylthiazol-2-yl)-2,5-diphenyltetrazolium bromide) (Sigma-Aldrich) was added, and incubated with the cells for 4 h, followed by addition of 100 μL 10% SLS, 0.01 M HCL. The plates were read at 595 nm on a Multiscan FC plate reader (Thermo Scientific) and the data was fitted to a variable slope dose–response curve using Graphpad prism v6 to obtain the cytotoxicity IC50. The assay was repeated independently three times where inhibition was observed.

Take `CC1CCC2C(C)C(OC(=O)CCC(=O)OC[c-]3cccc3)OC3OC4(C)CCC1C32OO4.[Fe+2].c1cc[cH-]c1` (stereo not shown) [Compound C2]: the “S.I (P. falciparum), HEK293” value was found to be 2800 and the “S.I (T. gondii), HEK293” value is 190.

With `CC1CCC2C(C)C(OC(=O)CCC(=O)NC[c-]3cccc3)OC3OC4(C)CCC1C32OO4.[Fe+2].c1cc[cH-]c1` (stereo not shown) [Compound C4], the “S.I (P. falciparum), HEK293” value is reported as 3000 and the “S.I (T. gondii), HEK293” value was 60.
